PubChem BioAssay AID504761, Drosophila RNAi Screening Center | 2011

- Screen: 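Genome-wide fly cell screen for genes dengue virus requires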 (primary screen)
- Cells: D.Mel-2 cells from Drosophila
- Reagent: long dsRNA against Drosophila genes
- Challenge: infection with dengue virus type 2; dose and infection time not stated
- Measurement: 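Cells stained for dengue envelope protein and imaged; percent of infected cells per well on duplicate plates, ranked by infection, with stained nuclei counted for cell number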
- Direction: infection score: higher = more virus-infected cells; cell count: higher = more cells in the well
- Rule for the call: 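Very low infection ranking in both replicate wells (chance probability at most 0.065), then a retest showing infection dropped 1.5-fold or more at p below 0.05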
- Meaning of the calls: active = confirmed: knock-down lowers infection; inactive = not picked or not confirmed
The screen tested about 22,000 reagents; this is a random part of those that have a named target and a result. Over the whole deposit, 116 (0.52%) were called active. 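Calls depend on retest data that are not deposited; infection was ranked per plate without normalising between plates; the unit of the infection score is not given.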 Raw values vary from plate to plate and are shown uncorrected. A plus sign joins genes that one reagent is predicted to hit. Not given: the amount of reagent, the time to read-out.

target gene	PubChem SID	infection score, replicate 1	infection score, replicate 2	cell count, replicate 1	cell count, replicate 2	outcome
Nlg4	SID104194901	3.18	0.56	6448	5668	inactive
Nlg4	SID104195492	3.11	3.11	6558	5764	inactive
Nlg4	SID104201769	5.88	13.2	7145	6444	inactive
Nlg4	SID104207329	25	11.3	5188	4564	inactive
Nlg4	SID104208305	5.63	7.55	6514	6452	inactive
Nlg4	SID104208566	11.3	7.24	1670	6578	inactive
nAChRalpha4	SID104191717	2.4	2.14	6037	6127	inactive
nAChRalpha4	SID104205361	2.03	8.9	6941	6565	inactive
CG4020	SID104198129	2.01	1.13	6532	6873	inactive
Mlp60A	SID104184415	6.68	9.92	5553	3711	inactive
Mlp60A	SID104201761	3.53	3.79	6705	6512	inactive
Mlp60A	SID104201936	0.7	13.8	5735	5576	inactive
mthl4	SID104186790	26	11	3955	3552	inactive
TwdlY	SID104198945	5.8	5.73	5881	6210	inactive
ND-MNLL	SID104197951	4.96	9.05	5682	4754	inactive
CG30492 (retired record) + M7BP	SID104184845	0.74	1.15	6255	5904	inactive
CG30492 (retired record) + M7BP	SID104184846	1.6	0.58	5891	6177	inactive
CG30492 (retired record) + M7BP	SID104186493	7.24	5.93	6052	6810	inactive
CG30492 (retired record) + M7BP	SID104186608	6.97	3.38	6385	6418	inactive
CG30492 (retired record) + M7BP	SID104205449	4.7	1.26	6356	6105	inactive
Obp93a	SID104195012	14.7	6.07	3448	6488	inactive
MED20	SID104183255	2.65	2.86	6104	839	inactive
Bka	SID104182549	9.22	9.29	5685	5930	inactive
CG14333 (retired record)	SID104194604	25.8	23.9	6871	3228	inactive
CG14333 (retired record)	SID104195561	5.31	9.54	6649	6686	inactive
CG14333 (retired record)	SID104204455	7.57	0.57	5456	5951	inactive
CG14333 (retired record)	SID104205750	11.7	28.2	6302	5309	inactive
CG10013	SID104193967	4.48	6.24	6431	6731	inactive
Abca3	SID104200338	4.72	4.17	5993	5954	inactive
CG17298	SID104195013	4.68	5.3	6245	5341	inactive
CG17298	SID104206441	2.89	7.87	6712	6784	inactive
oc	SID104203552	1.15	13.7	6350	6381	inactive
Dmtn	SID104192305	10.2	13.8	4813	4390	inactive
Dmtn	SID104206929	12.7	6.94	3619	2493	inactive
RpL32	SID104196627	1.13	1.42	1059	914	inactive
RpL32	SID104205708	8.53	11.1	1617	1291	inactive
MsrA	SID104190951	3.66	5.93	6549	6475	inactive
AdoR	SID104196348	8.78	8.89	4125	5599	inactive
AdoR	SID104206615	5.83	6.21	6603	6711	inactive
nej	SID104197798	15.6	12.8	5155	5653	inactive
nej	SID104198593	7.06	2.34	1897	2739	inactive
nej	SID104203633	13.2	7.07	4695	4651	inactive
nej	SID104205318	4.49	4.55	5588	5764	inactive
Ugt303B2	SID104193990	2.75	15.1	6588	5374	inactive
Ugt303B2	SID104202223	1.3	7.12	6533	6815	inactive
CG3919	SID104190181	3.84	3.93	6842	6711	inactive
CG13063	SID104189738	2.09	4.14	5780	6548	inactive
CG13063	SID104204012	20.2	12.4	6124	5824	inactive
IP3K1	SID104182526	11.6	3.18	6329	5715	inactive
snRNA:U11	SID104214102	0.98	6.78	5921	6567	inactive
Cyp6a16Psi (retired record)	SID104183099	3.25	7.88	6379	6393	inactive
CG13376	SID104197693	15.7	9.1	5535	5737	inactive
CG14253	SID104194540		4.25	249	6874	inactive
FucTA	SID104190525	0.6	1.82	6282	6034	inactive
CG10916	SID104185804	15.5	13	5688	4227	inactive
CG5026	SID104190262	0.95	0.25	525	402	inactive
CG17801	SID104195065	4.83	2.44	6502	6979	inactive
Ror	SID104183206	3.21	2.1	6483	6771	inactive
